{"source": "PubChem BioAssay AID624099 (ICCB-Longwood, 2012)", "assay": "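Knock-downs relieving repression by E2 of an HPV18 LCR luciferase reporter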 (primary screen)", "cells": "human C33A cervical carcinoma cells (HPV-negative) stably expressing BPV1 E2 and an HPV18 LCR luciferase reporter", "knock-down reagent": "siRNA pool against human genes, 40 nM", "time to read-out": "72 h", "read-out": "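Per-well luciferase luminescence, z-scored on each plate against the plate mean and SD with control wells left out, then averaged across three replicate plates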", "reading the numbers": "mean z-score and z-score: higher = stronger reporter signal, weaker E2 silencing", "hit rule": "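Mean z ≥ 2 together with z ≥ 2 in two or more of the three replicates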", "note": "Here is a random part of about 21,000 deposited reagents. 497 of all reagents (2.4%) were called active. 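Higher z means weaker E2 silencing; only reporter increases were scored, and knock-downs that hurt cell survival may mask genuine repressor factors.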 A number with no mark means an inactive call."}
{"Target gene":"SACS (sacsin molecular chaperone)","mean z-score":-0.64,"z-score, replicate A":-0.27,"z-score, replicate B":-0.74,"z-score, replicate C":-0.92}
{"Target gene":"H3-3A (H3.3 histone A)","mean z-score":-0.71,"z-score, replicate A":-0.64,"z-score, replicate B":-0.78,"z-score, replicate C":-0.7}
{"Target gene":"LARS2 (leucyl-tRNA synthetase 2, mitochondrial)","mean z-score":0.71,"z-score, replicate A":0.93,"z-score, replicate B":0.73,"z-score, replicate C":0.47}
{"Target gene":"HAT1 (histone acetyltransferase 1)","mean z-score":-0.64,"z-score, replicate A":-0.72,"z-score, replicate B":-0.76,"z-score, replicate C":-0.44}
{"Target gene":"RPS26 (ribosomal protein S26)","mean z-score":-1.46,"z-score, replicate A":-1.65,"z-score, replicate B":-1.5,"z-score, replicate C":-1.22}
{"Target gene":"FAM106A (family with sequence similarity 106 member A)","mean z-score":-0.57,"z-score, replicate A":-0.86,"z-score, replicate B":-0.4,"z-score, replicate C":-0.45}
{"Target gene":"HAUS3 (HAUS augmin like complex subunit 3)","mean z-score":-1.17,"z-score, replicate A":-1.53,"z-score, replicate B":-1.73,"z-score, replicate C":-0.23}
{"Target gene":"DPF3 (double PHD fingers 3)","mean z-score":0.11,"z-score, replicate A":-0.24,"z-score, replicate B":0.07,"z-score, replicate C":0.51}
{"Target gene":"NPTX1 (neuronal pentraxin 1)","mean z-score":-0.11,"z-score, replicate A":0.02,"z-score, replicate B":-0.04,"z-score, replicate C":-0.32}
{"Target gene":"KBTBD11 (kelch repeat and BTB domain containing 11)","mean z-score":-0.11,"z-score, replicate A":0.09,"z-score, replicate B":-0.21,"z-score, replicate C":-0.23}
{"Target gene":"PCDHB5 (protocadherin beta 5)","mean z-score":-0.35,"z-score, replicate A":-0.09,"z-score, replicate B":-0.27,"z-score, replicate C":-0.68}
{"Target gene":"LONRF2 (LON peptidase N-terminal domain and ring finger 2)","mean z-score":0.69,"z-score, replicate A":1.03,"z-score, replicate B":0.72,"z-score, replicate C":0.32}
{"Target gene":"CDHR4 (cadherin related family member 4)","mean z-score":-0.34,"z-score, replicate A":-0.63,"z-score, replicate B":-0.24,"z-score, replicate C":-0.16}
{"Target gene":"RGS2 (regulator of G protein signaling 2)","mean z-score":-0.42,"z-score, replicate A":-0.59,"z-score, replicate B":-0.24,"z-score, replicate C":-0.43}

In a second layout: results already given
| Target gene | mean z-score | z-score, replicate A | z-score, replicate B | z-score, replicate C |
| --- | --- | --- | --- | --- |
| DPF3 (double PHD fingers 3) | 0.11 | -0.24 | 0.07 | 0.51 |
| NPTX1 (neuronal pentraxin 1) | -0.11 | 0.02 | -0.04 | -0.32 |
| KBTBD11 (kelch repeat and BTB domain containing 11) | -0.11 | 0.09 | -0.21 | -0.23 |

More results follow.
{"Target gene":"ARMS2 (age-related maculopathy susceptibility 2)","mean z-score":-0.64,"z-score, replicate A":-0.48,"z-score, replicate B":-0.98,"z-score, replicate C":-0.47}
{"Target gene":"LTB4R (leukotriene B4 receptor)","mean z-score":0.49,"z-score, replicate A":0.4,"z-score, replicate B":0.06,"z-score, replicate C":1.01}
{"Target gene":"NPAS4 (neuronal PAS domain protein 4)","mean z-score":-2.36,"z-score, replicate A":-2.59,"z-score, replicate B":-2.24,"z-score, replicate C":-2.25}
{"Target gene":"MTHFD1L","mean z-score":1.09,"z-score, replicate A":0.93,"z-score, replicate B":1.37,"z-score, replicate C":0.97}
{"Target gene":"CFL1P1 (cofilin 1 pseudogene 1)","mean z-score":-0.69,"z-score, replicate A":-1.04,"z-score, replicate B":-0.71,"z-score, replicate C":-0.3}
{"Target gene":"STK39 (serine/threonine kinase 39)","mean z-score":-0.29,"z-score, replicate A":-0.37,"z-score, replicate B":-0.42,"z-score, replicate C":-0.08}
{"Target gene":"TWF1 (twinfilin actin binding protein 1)","mean z-score":-0.08,"z-score, replicate A":-0.19,"z-score, replicate B":0.43,"z-score, replicate C":-0.48}
